Data on two compounds can be found in article PMC10534891, “Evaluation of 4-Aminoquinoline Hydrazone Analogues as Potential Leads for Drug-Resistant Malaria” (Molecules, 2023).

No dose or concentration is given here for some results.

This data set relates to P. falciparum K1 strain. The data set is described as follows: CalcuSyn drug combination assay. The data set is classed as cell-based, Plasmodium falciparum. The settings on record: CalcuSyn median effect, K1, 72 h.

For `O=C1C(O)=C([C@H]2CC[C@H](c3ccc(Cl)cc3)CC2)C(=O)c2ccccc21` [Atovaquone], the “m (kinetic order and shape of the curve)” value is listed as 0.652.

As for `[H]/N=C(\N/C(=N/[H])Nc1ccc(Cl)cc1)NC(C)C` [Proguanil], the “m (kinetic order and shape of the curve)” value was 0.565.
